Anti-infective test results gathered from many reports (values: NIAID ChemDB through PubChem).

Shared fields: whole-cell or culture tests; species: HIV-1; cell line: CEM; read by: syncytia; read-out: fold resistance

Fold resistance has wild type as its base.

smiles,strain or isolate,changes,result
CC(C)c1c(Sc2ccccc2)n(COCCO)c(=O)[nH]c1=O,IIIB,RT-Y181C,196
CC(C)OC(=S)Nc1ccc(Cl)c(C(=O)O)c1,-,RT-V106A,>1
CC1=C(C(=O)Nc2cc(C(=O)OC(C)C)c(C)cc2F)SCCO1,TSAO-resistant (RT E138K),RT-E138K,>4.35
C=CCSc1cc(NC(=S)OC(C)C)ccc1Cl,-,RT-E138K,2.26
CCOCn1c(Sc2ccccc2)c(CC)c(=O)[nH]c1=S,IIIB,Nevirapine resistant (RT Y181C),28.2
COC(=O)c1cc(NC(=O)C2=C(C)OCCS2)ccc1Cl,TSAO-resistant (RT E138K),RT-E138K,>2.5
Cc1cc(C)cc(Sc2c(C(C)C)c(=O)[nH]c(=S)n2COCCO)c1,IIIB,RT-Y188H,233
CCOC(=O)c1cc(NC(=O)C2=C(CC)OCCS2)ccc1Cl,TIBO-resistant (RT L100I),RT-L100I,11.4
Cc1occc1C(=S)Nc1ccc(Cl)c(/C=N/OC(C)(C)C)c1,IIIB,RT-Y181C,1.5
CC1=C(C(=O)Nc2cc(C(=O)OC(C)C)c(Cl)cc2F)SCCO1,TIBO-resistant (RT L100I),RT-L100I,>15.4
CCCCOC(=O)c1cc(NC(=S)OC(C)C)ccc1Cl,-,RT-V106A,17.5
CCc1c(Sc2cc(C)cc(C)c2)n(COCc2ccccc2)c(=O)[nH]c1=O,IIIB,RT-E138K,9
CC(C)OC(=S)Nc1ccc(Cl)c(C(=O)OC2CC2)c1,-,RT-Y181C,20.1
CC(C)OC(=O)c1cc(NC(=S)OC(C)C)ccc1Cl,IIIB,RT-L100I,71
CCOCn1c(Sc2cc(C)cc(C)c2)c(CC)c(=O)[nH]c1=S,IIIB,RT-Y188H,2870
C#CCOc1cc(NC(=S)OC(C)C)ccc1Cl,-,RT-V106A,6.25

Repeating the final 2 entries:

smiles,strain or isolate,changes,result
CCOCn1c(Sc2cc(C)cc(C)c2)c(CC)c(=O)[nH]c1=S,IIIB,RT-Y188H,2870
C#CCOc1cc(NC(=S)OC(C)C)ccc1Cl,-,RT-V106A,6.25

Rows are shuffled and stem from different studies. Blank or dashed fields: not listed here.